Results on one compound are retold here after publication PMC8190750 (Cell Research, 2021).

The data set relates to C57BL/6 mice. Kind of data set: In vivo dose range toxicity study. The conditions noted are these: up to 50 mg/kg, repeat dose tail vein injection.

Consider `CCCCNC(=O)Oc1ccc2cc1Oc1ccc(cc1)CC1c3cc(c(OC)cc3CCN1C)Oc1c(OC)c(OC)cc3c1C(C2)N(C)CC3` (stereo not shown), for which the “body weight compared with the control group” value is given as “No significant changes in body weight were observed with up to 50 mg/kg of BE-33 compared with the control group, however, in the 50 mg/kg administration group, a pronounced decrease in locomotor activity was observed”.
